Publication PMC5666006 (Scientific Reports, 2017)

Assay: general procedure: Fmoc solid-phase peptide synthesis; 2-Chlorotrytil chloride resin; HOAt/PyBOP/DIEA; PyAOP/DIEA for cyclization
Conditions: whole synthesis, analytical HPLC at 220 nm

Going from “PEPTIDE1{E.[dP].W.E.[dP].W}$PEPTIDE1,PEPTIDE1,1:R1-6:R2$$$V2.0” to “PEPTIDE1{R.P.[dW].R.P.[dW]}$PEPTIDE1,PEPTIDE1,1:R1-6:R2$$$V2.0”, the “final HPLC purity” value rises from 95% to 100%.

First: PEPTIDE1{R.[dP].W.R.[dP].W}$PEPTIDE1,PEPTIDE1,1:R1-6:R2$$$V2.0
Second: PEPTIDE1{S.[dP].W.S.[dP].W}$PEPTIDE1,PEPTIDE1,1:R1-6:R2$$$V2.0
The “final HPLC purity” value of the first is lower: 96% for the first, 100% for the second.

Going from “PEPTIDE1{W.[dP].R.W.[dP].R}$PEPTIDE1,PEPTIDE1,1:R1-6:R2$$$V2.0” to “PEPTIDE1{[ac].W.[dP].R.W.[dP].R}$$$$V2.0”, the “final HPLC purity” value rises from 92% to 100%.

With “PEPTIDE1{[dR].P.W.[dR].P.W}$PEPTIDE1,PEPTIDE1,1:R1-6:R2$$$V2.0” the “final HPLC purity” value was 95%.

Some peptides are written in HELM: one residue between dots, names in brackets for other building blocks, links after the first $.
